Columns and labels:
[1] = biological target: HCV 1a E2 with alanine substitution at 442 (hepatitis C virus genotype 1a, H77c, UniProt P27958 384-746)
[2] = biological target: HCV 1a E2 with alanine substitution at 428 (hepatitis C virus genotype 1a, H77c, UniProt P27958 384-746)
[3] = biological target: HCV 1a E2 with alanine substitution at 443 (hepatitis C virus genotype 1a, H77c, UniProt P27958 384-746)
[4] = biological target: HCV 1a E2 with alanine substitution at 616 (hepatitis C virus genotype 1a, H77c, UniProt P27958 384-746)
[5] = biological target: HCV 1a E2 with alanine substitution at 613 (hepatitis C virus genotype 1a, H77c, UniProt P27958 384-746)
[6] = biological target: HCV 1a E2 with alanine substitution at 441 (hepatitis C virus genotype 1a, H77c, UniProt P27958 384-746)
[7] = biological target: HCV 1a E2 with alanine substitution at 446 (hepatitis C virus genotype 1a, H77c, UniProt P27958 384-746)
[8] = biological target: HCV 1a E2 with alanine substitution at 420 (hepatitis C virus genotype 1a, H77c, UniProt P27958 384-746)
[9] = biological target: HCV 1a E2 with alanine substitution at 437 (hepatitis C virus genotype 1a, H77c, UniProt P27958 384-746)
[10] = biological target: HCV 1a E2 with alanine substitution at 429 (hepatitis C virus genotype 1a, H77c, UniProt P27958 384-746)

B1: CD81 large extracellular loop fused to glutathione S-transferase (receptor)
chain: FVNKDQIAKDVKQFYDQALQQAVVDDDANNAKAVVKTFHETLDCCGSSTLTALTTSVLKNNLCPSGSNIISNLFKEDCHQKIDDLFSGK
[1]
  binding result: no binding
[2]
  binding result: binds
[3]
  binding result: binds
[4]
  binding result: no binding
[5]
  binding result: no binding
[6]
  binding result: no binding
[7]
  binding result: binds
[8]
  binding result: no binding
[9]
  binding result: no binding
[10]
  binding result: no binding

Source: patent US20130084301A1 (published 2013)
